Compound potency records, mixed from different reports. Data source: NIAID ChemDB in PubChem.

Common to all: whole-cell or culture tests; agent: Mycobacterium avium complex

A number after MIC or MFC names an inhibition level or a share of isolates. Blank or dashed fields: not listed here. Conditions beyond the fields shown may differ between rows.

| smiles | method | strain or isolate | measure | result |
|---|---|---|---|---|
| NCC1CCN(c2c(F)cc3c(=O)c(C(=O)O)cn(C4CC4)c3c2F)C1 | - | 1760694 | MIC | 4 µg/mL |
| O=C(O)c1cn(C2CC2)c2c(Cl)c(N3CCNCC3)c(F)cc2c1=O | - | 14 strains | MIC90 | 4 µg/mL |
| O=C(O)c1cn(C2CC2)c2c(F)c(N3CCNCC3)c(F)cc2c1=O | - | 14 strains | MIC50 | 1 µg/mL |
| NCC[C@H](O)C(=O)N[C@@H]1C[C@H](N)[C@@H](O[C@H]2O[C@H](CN)[C@@H](O)[C@H](O)[C@H]2O)[C@H](O)[C@H]1O[C@H]1O[C@H](CO)[C@@H](O)[C@H](N)[C@H]1O | - | SK46/HIV+ | MIC | 2.5 µg/mL |
| O=C(NO)c1cc(Br)ccc1O | - | 32 isolates | MIC | 10 µg/mL |
| CO[C@H]1/C=C/O[C@@]2(C)Oc3c(C)c(O)c4c(O)c(c(/C=N/N5CCN(C/C=C/c6ccccc6)CC5)c(O)c4c3C2=O)NC(=O)/C(C)=C\C=C\[C@H](C)[C@H](O)[C@@H](C)[C@@H](O)[C@@H](C)[C@H](OC(C)=O)[C@@H]1C | - | LR549 | MIC | ≤0.015 µg/mL |
| CC1CN(c2c(F)cc3c(=O)c(C(=O)O)cn(C4CC4)c3c2F)C(C)CN1 | - | 14 strains | MIC90 | 4 µg/mL |
| NC[C@@H]1O[C@H](O[C@H]2[C@@H](O)[C@H](O[C@@H]3[C@@H](O)[C@H](N)C[C@H](N)[C@H]3O[C@H]3O[C@H](CO)[C@@H](O)[C@H](O)[C@H]3N)O[C@@H]2CO)[C@H](N)[C@@H](O)[C@@H]1O | - | 562/HIV+ | MIC | <1.56 µg/mL |
| CC[C@@H](CO)NCCN[C@@H](CC)CO | - | 1056 | MIC | 8 µg/mL |
| CC(C)(N)C1CCN(c2c(F)cc3c(=O)c(C(=O)O)cn(C4CC4)c3c2F)C1 | - | 1915112 | MIC | 16 µg/mL |
| NC[C@H]1O[C@H](O[C@H]2[C@H](O)[C@@H](O[C@H]3O[C@H](CO)[C@@H](O)[C@H](N)[C@H]3O)[C@H](N)C[C@@H]2N)[C@H](O)[C@@H](O)[C@@H]1O | - | TMC 1473 | MIC | 0.78 µg/mL |
| O=C(O)c1cn(-c2ccc(F)cc2F)c2c(F)c(N3CCNCC3)c(F)cc2c1=O | - | 14 strains | MIC90 | >32 µg/mL |
| NCC[C@H](O)C(=O)N[C@@H]1C[C@H](N)[C@@H](O[C@H]2O[C@H](CN)[C@@H](O)[C@H](O)[C@H]2O)[C@H](O)[C@H]1O[C@H]1O[C@H](CO)[C@@H](O)[C@H](N)[C@H]1O | - | 711/HIV- | MIC | 4 µg/mL |
| C[C@@H]1CN(c2c(F)c(N)c3c(=O)c(C(=O)O)cn(C4CC4)c3c2F)C[C@H](C)N1 | broth dilution | 14 | MIC | 1 µg/mL |
| CNC1CCN(c2c(F)cc3c(=O)c(C(=O)O)cn(C4CC4)c3c2F)C1 | - | 14 strains | MIC90 | 8 µg/mL |
| CO[C@H]1/C=C/O[C@@]2(C)Oc3c(C)c(O)c4c(O)c(c5c(c4c3C2=O)NC2(CCN(CC(C)C)CC2)N=5)=NC(=O)/C(C)=C\C=C\[C@H](C)[C@H](O)[C@@H](C)[C@@H](O)[C@@H](C)[C@H](OC(C)=O)[C@@H]1C | - | 1854-4 | MBC | 32 µg/mL |
| Brc1cccc(CSc2nc3ccccc3[nH]2)c1 | - | MY330/88 | MIC | >125 µM |
| COc1c(N2CCNCC2)c(F)cc2c(=O)c(C(=O)O)cn(-c3ccc(F)cc3F)c12 | - | 14 strains | MIC50 | ≥32 µg/mL |
| O=C(O)c1cn(C2CC2)c2c(F)c(N3CC4CCCC(C3)N4)c(F)cc2c1=O | - | PI12/39 | MIC | 8 µg/mL |
| CC[C@H]1OC(=O)[C@H](C)[C@@H](O[C@H]2C[C@@](C)(OC)[C@@H](O)[C@H](C)O2)[C@H](C)[C@@H](O[C@@H]2O[C@H](C)C[C@H](N(C)C)[C@H]2O)[C@](C)(O)C[C@@H](C)CN(C)[C@H](C)[C@@H](O)[C@]1(C)O | - | 32 isolates | MIC | 5 µg/mL |
| NCC[C@H](O)C(=O)N[C@@H]1C[C@H](N)[C@@H](O[C@H]2O[C@H](CN)[C@@H](O)[C@H](O)[C@H]2O)[C@H](O)[C@H]1O[C@H]1O[C@H](CO)[C@@H](O)[C@H](N)[C@H]1O | - | 3214 | MIC | 4 µg/mL |
| CC[C@@H](CO)NCCN[C@@H](CC)CO | - | 101-5 | MIC | 1.9 µg/mL |
| NC1CCCCN(c2c(F)cc3c(=O)c(C(=O)O)cn(C4CC4)c3c2F)C1=O | - | 1172733 | MIC | 32 µg/mL |
| COc1ccc(/C=C/NC=O)cc1 | - | 32 isolates | MIC | 10 µg/mL |
| CC[C@H]1OC(=O)[C@H](C)[C@@H](O[C@H]2C[C@@](C)(OC)[C@@H](O)[C@H](C)O2)[C@H](C)[C@@H](O[C@@H]2O[C@H](C)C[C@H](N(C)C)[C@H]2O)[C@](C)(OC)C[C@@H](C)C(=O)[C@H](C)[C@@H](O)[C@]1(C)O | - | 3218 | MIC | 2 µg/mL |
| O=C(O)c1cn(C2CC2)c2c(F)c(N3CC4CC3CN4)c(F)cc2c1=O | - | 14 strains | MIC90 | 8 µg/mL |
| CC1COc2c(N3CCN(C)CC3)c(F)cc3c(=O)c(C(=O)O)cn1c23 | - | 711/HIV- | MIC | >16 µg/mL |
| Clc1ccc(CSc2nc3ccccc3[nH]2)cc1 | - | MY330/88 | MIC | >16 µM |
| CCn1cc(C(=O)O)c(=O)c2cc(F)c(N3CCN(C)CC3)cc21 | - | CIPT 140310034 | MIC | 20 µg/mL |
| O=C(O)c1cn(C2CC2)c2c(F)c(N3CCC(NC4CC4)C3)c(F)cc2c1=O | - | 1988557 | MIC | 1 µg/mL |
| NCC[C@H](O)C(=O)N[C@@H]1C[C@H](N)[C@@H](O[C@H]2O[C@H](CN)[C@@H](O)[C@H](O)[C@H]2O)[C@H](O)[C@H]1O[C@H]1O[C@H](CO)[C@@H](O)[C@H](N)[C@H]1O | - | TMC 1403 | MIC | 0.78 µg/mL |
| NCC[C@H](O)C(=O)N[C@@H]1C[C@H](N)[C@@H](O[C@H]2O[C@H](CN)[C@@H](O)[C@H](O)[C@H]2O)[C@H](O)[C@H]1O[C@H]1O[C@H](CO)[C@@H](O)[C@H](N)[C@H]1O | - | 1069 | MIC | 2.5 µg/mL |
| Cc1ccc(CSc2nc3ccccc3[nH]2)cc1 | - | MY330/88 | MIC | 62 µM |
| NC[C@@H]1O[C@H](O[C@H]2[C@@H](O)[C@H](O[C@@H]3[C@@H](O)[C@H](N)C[C@H](N)[C@H]3O[C@H]3O[C@H](CO)[C@@H](O)C[C@H]3N)O[C@@H]2CO)[C@H](N)[C@@H](O)[C@@H]1O[C@H]1O[C@H](CO)[C@@H](O)[C@H](O)[C@@H]1O | - | Isolate 53 | MIC | 12.5 µg/mL |
| CCC1CN(c2cc3c(cc2F)c(=O)c(C(=O)O)cn3C(C)(C)C)CCN1 | - | 14 strains | MIC90 | 4 µg/mL |
| O=C(NCN1CCOCC1)c1cnccn1 | - | 32 isolates | MIC | 15 µg/mL |
| NC[C@H]1O[C@H](O[C@H]2[C@H](O)[C@@H](O[C@H]3O[C@H](CO)[C@@H](O)[C@H](N)[C@H]3O)[C@H](N)C[C@@H]2N)[C@H](N)[C@@H](O)[C@@H]1O | - | Isolate 49 | MIC | 12.5 µg/mL |
| Nc1ccn([C@@H]2O[C@H](CO)[C@@H](O)[C@@H]2O)c(=O)n1 | - | 32 isolates | MIC50 | >128 µg/mL |
| NC[C@@H]1O[C@H](O[C@H]2[C@@H](O)[C@H](O[C@@H]3[C@@H](O)[C@H](N)C[C@H](N)[C@H]3O[C@H]3O[C@H](CO)[C@@H](O)[C@H](O)[C@H]3N)O[C@@H]2CO)[C@H](N)[C@@H](O)[C@@H]1O | - | Isolate 53 | MIC | 12.5 µg/mL |
| CCCCCCCCCCCCCCCCSc1nc2ccccc2[nH]1 | - | MY330/88 | MIC | >250 µM |
| O=C(O)c1cn(C2CC2)c2nc(N3CCNCC3)c(F)cc2c1=O | - | 14 strains | MIC90 | 8 µg/mL |
| CCn1cc(C(=O)O)c(=O)c2cc(F)c(N3CCNCC3)nc21 | - | CIPT 14031005 | MIC | >40 µg/mL |
| FC(F)(F)c1cc(CSc2nc3ccccc3[nH]2)cc(C(F)(F)F)c1 | - | MY330/88 | MIC | >125 µM |
| O=C(O)c1cn(C2CC2)c2cc(N3CCNCC3)c(F)cc2c1=O | - | 32 isolates | MIC90 | 8 µg/mL |
| CO[C@H]1/C=C/O[C@@]2(C)Oc3c(C)c(O)c4c(O)c(c(/C=N/N5CCN(C)CC5)c(O)c4c3C2=O)NC(=O)/C(C)=C\C=C\[C@H](C)[C@H](O)[C@@H](C)[C@@H](O)[C@@H](C)[C@H](OC(C)=O)[C@@H]1C | - | 3220 | MIC | 8 µg/mL |
| COc1c(N2CCNCC2)c(F)cc2c(=O)c(C(=O)O)cn(C3CC3)c12 | - | 14 strains | MIC50 | 1 µg/mL |
| NCCC[C@H](N)CC(=O)N[C@H]1CNC(=O)[C@H]([C@H]2C[C@H](O)NC(N)=N2)NC(=O)/C(=C/NC(N)=O)NC(=O)[C@H](CO)NC(=O)[C@H](CO)NC1=O | - | 32 isolates | MIC | 8 µg/mL |
| COc1cccc(CSc2nc3ccccc3[nH]2)c1 | - | MY330/88 | MIC | 125 µM |
| CCN1CCN(c2nc3c(cc2F)c(=O)c(C(=O)O)cn3C(C)(C)C)CC1 | - | 14 strains | MIC90 | 4 µg/mL |
| CO[C@H]1/C=C/O[C@@]2(C)Oc3c(C)c(O)c4c(O)c(c5c(c4c3C2=O)NC2(CCN(CC(C)C)CC2)N=5)=NC(=O)/C(C)=C\C=C\[C@H](C)[C@H](O)[C@@H](C)[C@@H](O)[C@@H](C)[C@H](OC(C)=O)[C@@H]1C | - | 32 isolates | MIC50 | 1 µg/mL |

4 of the rows above, restated:

smiles | method | strain or isolate | measure | result
FC(F)(F)c1cc(CSc2nc3ccccc3[nH]2)cc(C(F)(F)F)c1 | - | MY330/88 | MIC | >125 µM
COc1c(N2CCNCC2)c(F)cc2c(=O)c(C(=O)O)cn(-c3ccc(F)cc3F)c12 | - | 14 strains | MIC50 | ≥32 µg/mL
CCCCCCCCCCCCCCCCSc1nc2ccccc2[nH]1 | - | MY330/88 | MIC | >250 µM
CO[C@H]1/C=C/O[C@@]2(C)Oc3c(C)c(O)c4c(O)c(c5c(c4c3C2=O)NC2(CCN(CC(C)C)CC2)N=5)=NC(=O)/C(C)=C\C=C\[C@H](C)[C@H](O)[C@@H](C)[C@@H](O)[C@@H](C)[C@H](OC(C)=O)[C@@H]1C | - | 32 isolates | MIC50 | 1 µg/mL